# Library screen at single concentrations

The values are deposited in ChEMBL (CHEMBL3988442, “University of Dundee, Small-Polar-MMV Screening Library” (2021)).

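Whole-cell growth test on Mycobacterium tuberculosis, read after 3 days in glucose-containing 7H9 medium; the read-out is not stated. Tested at 500 µM. Direction is inferred from retests: higher values go with more growth inhibition. About 18,000 compounds were tested under these conditions; 7.9% (about 1,400) showed 50% or more at least once.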

The filed quantity is “Percent Effect” (%). The controls that fix the scale are not given in the record; negative values are as filed. This is part of a subset picked to be rich in strong results.

| SMILES | Percent Effect |
|---|---|
| `CC(NC(=O)c1ccco1)c1ccccn1` (stereo not drawn) | 41.54 |
| `CCNC(=O)CNc1nnnn1-c1ccc(C)cc1` | -0.248 |
| `CCNC(=O)NC(c1ccc2c(c1)OCCO2)C(C)C` (stereo not drawn) | 59.23 |
| `O=C(c1n[nH]c(=O)c2ccccc12)N1CCCCC1` | 7.78 |
| `NCc1nc(-c2ccc(OC(F)(F)F)cc2)no1` | 76.6 |
| `COCCCNC(=O)CC1Nc2ccccc2NC1=O` (stereo not drawn) | 23.1 |
| `CS(=O)(=O)NCCC1=CCCCC1` | 49.54 |
| `Cn1nccc1C(=O)NC1Cc2ccccc2C1` | 44.25 |
| `CNCC(=O)Nc1cccc2ccccc12` | 23.16 |
| `CNC(=O)CS(=O)(=O)c1nccn1C` | 3.884 |
| `CCc1ccc(CN(CC)[C@H]2COC[C@@H]2O)nc1` | 35.36 |
| `Cc1cccnc1CSc1nnnn1CC1CCCO1` (stereo not drawn) | 36.95 |
| `CCOC(=O)N1CCC(NC(=O)c2ccsc2)CC1` | 67.05 |
| `CNC(=O)CN(C)C(=O)c1csc(Br)c1` | 0.9059 |
| `Cn1c(=O)[nH]c(=O)c2cccnc21` | 19.28 |
| `O=C(c1csc(Br)c1)N1CCOCC1` | 21.77 |
| `CC(Cc1ccccc1F)NC1(C(N)=O)CC1` (stereo not drawn) | 18.55 |
| `CC(C)COc1ccc(NC(=O)C2CCOC2)cn1` (stereo not drawn) | -83.43 |
| `CC(N)CN1CCN(c2ncccn2)CC1` (stereo not drawn) | -6.778 |
| `CCc1nccn1CCCn1cnnc1` | 2.674 |
| `CN(C)C(=O)CN(c1ccc(Cl)cc1Cl)S(C)(=O)=O` | 12.56 |
| `CCN1CC(NC(=O)CCc2cccnc2)CC1=O` (stereo not drawn) | 5.927 |
| `NCC(CO)Cc1cccnc1` (stereo not drawn) | -1.702 |
| `CN1CCN(c2ccccc2C#N)CC1` | 13.66 |
| `Cn1cc(C2NC(=O)CC[C@@H]2N)cn1` (stereo partly drawn) | 3.155 |
| `CC(O)C1CCN(CCC(=O)NC(C)(C)C)CC1` (stereo not drawn) | -8.451 |
| `CCN(Cc1cnc(N)nc1)CC1CCOCC1` | -9.449 |
| `NC(=O)CN1CCCN(c2nc3ccccc3o2)CC1` | 8.197 |
| `C=C(C)C(C)(C)C(=O)N[C@@H]1CCOC[C@H]1OCCO` | -16.45 |
| `N#Cc1cccc(C(=O)OCCCn2cccn2)c1` | 51.41 |
| `NS(=O)(=O)c1ccc(N2C(=O)C=CC2=O)cc1` | 22.62 |
| `CC(=O)c1ccc(CN)nc1C` | -5.48 |
| `Cc1ccoc1C(=O)N(C)Cc1nc(C(C)C)no1` | 63.43 |
| `CCc1nsc(N2CCSCC2)n1` | 33.18 |
| `CCn1nnc2cc(C(=O)NCCCN(C)C)ccc21` | 13.37 |
| `Nc1nnc(SCc2ccno2)s1` | 6.598 |
| `CCOCCCNC(=O)Nc1nnc2ccccn12` | 5.158 |
| `COc1ccccc1OCC(=O)NCC1CCOCC1` | 22.52 |
| `CNCc1ccc(N)nc1` | -10.16 |
| `NC1(c2nc(-c3ccccc3)c[nH]2)CCCC1` | 63.06 |
| `N[C@@H]1C[C@H]1c1ccccc1F` | 0.8473 |
| `COCc1ccc(C(=O)NC2CCC(O)CC2)cc1` (stereo not drawn) | 2.719 |
| `Cc1ccc(C(=O)N2CCCNCC2)cc1` | 1.861 |
| `OCC(O)CNc1ccnc2ccc(Cl)cc12` (stereo not drawn) | -29.82 |
| `CCn1c(C(N)=O)cc2ccccc21` | 28.37 |
| `CC(C)c1nsc(N2CCOCC2C)n1` (stereo not drawn) | 16.94 |
| `COCc1nc(CCNC(=O)Cc2cccnc2)no1` | 3.242 |
| `O=C1Nc2ccccc2C12CCNC2` (stereo not drawn) | -5.134 |
| `Cc1noc(CSc2ccc(C(=O)N3CCC3)cc2)n1` | 53.4 |
| `CNC(=O)CNC(=O)c1ccccc1O` | -9.316 |
| `CSCCCN(C)C(=O)CN(C)S(C)(=O)=O` | 5.226 |

5 of the entries, repeated:

{"smiles": "Cc1noc(CSc2ccc(C(=O)N3CCC3)cc2)n1", "Percent Effect": 53.4}
{"smiles": "CC(Cc1ccccc1F)NC1(C(N)=O)CC1", "stereo": "stereo not drawn", "Percent Effect": 18.55}
{"smiles": "CNC(=O)CN(C)C(=O)c1csc(Br)c1", "Percent Effect": 0.9059}
{"smiles": "COc1ccccc1OCC(=O)NCC1CCOCC1", "Percent Effect": 22.52}
{"smiles": "Cc1ccoc1C(=O)N(C)Cc1nc(C(C)C)no1", "Percent Effect": 63.43}